PubChem BioAssay AID504761 | Drosophila RNAi Screening Center | 2011

Screen: 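Insect host genes that dengue virus relies on to spread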 (primary screen)
System: D.Mel-2 cells from Drosophila
Knock-down reagent: long dsRNA against Drosophila genes
Treatment: infection with dengue virus type 2; dose and infection time not stated
Measurement: 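Per well on two replicate plates, imaging gave the percent of cells positive for viral envelope protein, ranked by infection, and a nuclear count of cells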
Reading the numbers: infection score: higher = more virus-infected cells; cell count: higher = more cells in the well
Hit rule: 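Very low infection ranking in both replicate wells (chance probability at most 0.065), then a retest showing infection dropped 1.5-fold or more at p below 0.05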
Calls: active = confirmed: knock-down lowers infection; inactive = not picked or not confirmed
In all, the deposit lists about 22,000 reagents; below is an unselected part of those with a known target gene and a result. Over the whole deposit, 116 (0.52%) got an active call. 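Calls depend on retest data that are not deposited; infection was ranked per plate without normalising between plates; the unit of the infection score is not given.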 The raw values are shown without normalisation. Entries without a mark were called inactive. The numbers tell different reagents against one gene apart. Reagent sequences are not shown. Not given: the amount of reagent, the time to read-out.

CG14024 #1 gave infection score, replicate 1 = 3.38; infection score, replicate 2 = 4.31; cell count, replicate 1 = 5942; cell count, replicate 2 = 6260. After knock-down of CG14024 #2 the results were infection score, replicate 1 = 4.99; infection score, replicate 2 = 1.22; cell count, replicate 1 = 6151; cell count, replicate 2 = 6417. CG33143 #1 showed infection score, replicate 1 = 3.85; infection score, replicate 2 = 4.7; cell count, replicate 1 = 6631; cell count, replicate 2 = 6491. Knock-down of CG33143 #2 resulted in: infection score, replicate 1 = 9.94; infection score, replicate 2 = 15.8; cell count, replicate 1 = 6398; cell count, replicate 2 = 6359. With knock-down of CG33143 #3, the screen gave infection score, replicate 1 = 2.07; infection score, replicate 2 = 13.5; cell count, replicate 1 = 6820; cell count, replicate 2 = 6560. Against Muc26B (Mucin 26B) #1, the values are infection score, replicate 1 = 3.77; infection score, replicate 2 = 0.87; cell count, replicate 1 = 6157; cell count, replicate 2 = 6566.

Muc26B (Mucin 26B) #2 scored infection score, replicate 1 = 5.15; infection score, replicate 2 = 3.33; cell count, replicate 1 = 6583; cell count, replicate 2 = 6300. Atg18a (Autophagy-related 18a) scored infection score, replicate 1 = 4.65; infection score, replicate 2 = 4.56; cell count, replicate 1 = 6522; cell count, replicate 2 = 6512. Knock-down of CG9162 (retired record) resulted in: infection score, replicate 1 = 5.83; infection score, replicate 2 = 0.53; cell count, replicate 1 = 5674; cell count, replicate 2 = 6549. After knock-down of CG4332 the results were infection score, replicate 1 = 7.21; infection score, replicate 2 = 6.37; cell count, replicate 1 = 7049; cell count, replicate 2 = 6390. Silencing of CG15628 #1 resulted in: infection score, replicate 1 = 3.65; infection score, replicate 2 = 3.34; cell count, replicate 1 = 4632; cell count, replicate 2 = 4697. Silencing of CG15628 #2 came out at: infection score, replicate 1 = 30.4; infection score, replicate 2 = 20; cell count, replicate 1 = 6651; cell count, replicate 2 = 6844.

Against Abi (Abelson interacting protein) #1, the values are infection score, replicate 1 = 24.4; infection score, replicate 2 = 18.6; cell count, replicate 1 = 6337; cell count, replicate 2 = 6269. Against Abi (Abelson interacting protein) #2, the values are infection score, replicate 1 = 27.3; infection score, replicate 2 = 7.2; cell count, replicate 1 = 6033; cell count, replicate 2 = 5705. CG6044 showed infection score, replicate 1 = 0.39; cell count, replicate 1 = 514; cell count, replicate 2 = 399. CG32259 showed infection score, replicate 1 = 3.2; infection score, replicate 2 = 6.81; cell count, replicate 1 = 6321; cell count, replicate 2 = 5988. mts (microtubule star) scored infection score, replicate 1 = 18.3; infection score, replicate 2 = 14.5; cell count, replicate 1 = 1817; cell count, replicate 2 = 1845. Silencing of Pgant2 (Polypeptide N-Acetylgalactosaminyltransferase 2) came out at: infection score, replicate 1 = 5.51; infection score, replicate 2 = 3.26; cell count, replicate 1 = 6764; cell count, replicate 2 = 7118.

Depletion of RabX5 #1 came out at: infection score, replicate 1 = 2; infection score, replicate 2 = 2.72; cell count, replicate 1 = 6191; cell count, replicate 2 = 5626. RabX5 #2 showed cell count, replicate 1 = 400; cell count, replicate 2 = 228. Against yuri (yuri gagarin) #1, the values are infection score, replicate 1 = 1.92; infection score, replicate 2 = 5.9; cell count, replicate 1 = 5845; cell count, replicate 2 = 5678. For yuri (yuri gagarin) #2 the deposit lists infection score, replicate 1 = 1.43; infection score, replicate 2 = 0.96; cell count, replicate 1 = 6160; cell count, replicate 2 = 6954. Depletion of yuri (yuri gagarin) #3 came out at: infection score, replicate 1 = 12.1; infection score, replicate 2 = 11; cell count, replicate 1 = 6493; cell count, replicate 2 = 5772. Depletion of yuri (yuri gagarin) #4 resulted in: infection score, replicate 1 = 7.16; infection score, replicate 2 = 7.51; cell count, replicate 1 = 2750; cell count, replicate 2 = 3848.
